From article PMC12578633, “Cross-neutralizing and potent human monoclonal antibodies against historical and emerging H5Nx influenza viruses” (2025)

What was measured:
[1] = target: 310-12D03 Fab (human)
[2] = target: 310-1H02 Fab (human)
[3] = target: 310-7D11 Fab (human)
[4] = target: 326-289.74 Fab (human)
[5] = target: 326-366.26 Fab (human)

| Substance | Kd [1] | koff [1] | kon [1] | Kd [2] | koff [2] | kon [2] | Kd [3] | koff [3] | kon [3] | Kd [4] | koff [4] | kon [4] | Kd [5] | koff [5] | kon [5] |
| --- | --- | --- | --- | --- | --- | --- | --- | --- | --- | --- | --- | --- | --- | --- | --- |
| H5 A/Cambodia/2302009/2023 haemagglutinin ectodomain, soluble trimer | 14.2 nM | 0.000449 s⁻¹ | 31500 M⁻¹ s⁻¹ | 3.89 nM | 0.000144 s⁻¹ | 37100 M⁻¹ s⁻¹ | 0.301 nM | 3.95e-05 s⁻¹ | 131000 M⁻¹ s⁻¹ | 1.21 nM | 3.02e-05 s⁻¹ | 25000 M⁻¹ s⁻¹ | 0.332 nM | 4.6e-05 s⁻¹ | 139000 M⁻¹ s⁻¹ |
| H5 A/Indonesia/05/2005 haemagglutinin ectodomain, soluble trimer | 0.3 nM | 4.81e-05 s⁻¹ | 160000 M⁻¹ s⁻¹ | 1.4 nM | 0.00011 s⁻¹ | 78600 M⁻¹ s⁻¹ | < 0.105 nM | < 1e-05 s⁻¹ | 95500 M⁻¹ s⁻¹ | 0.508 nM | 1.41e-05 s⁻¹ | 27700 M⁻¹ s⁻¹ | 0.109 nM | 1.62e-05 s⁻¹ | 148000 M⁻¹ s⁻¹ |
| H5 A/Sichuan/26221/2014 haemagglutinin ectodomain, soluble trimer | 19.2 nM | 0.00482 s⁻¹ | 251000 M⁻¹ s⁻¹ | 36.9 nM | 0.00237 s⁻¹ | 64200 M⁻¹ s⁻¹ | 50.4 nM | 0.00386 s⁻¹ | 76600 M⁻¹ s⁻¹ | < 0.0734 nM | < 1e-05 s⁻¹ | 136000 M⁻¹ s⁻¹ | 0.576 nM | 0.000131 s⁻¹ | 227000 M⁻¹ s⁻¹ |
| H5 A/Texas/37/2024 haemagglutinin ectodomain, soluble trimer | – | – | – | 2.14 nM | 0.000131 s⁻¹ | 61000 M⁻¹ s⁻¹ | 0.322 nM | 3.3e-05 s⁻¹ | 102000 M⁻¹ s⁻¹ | – | – | – | – | – | – |
| H5 A/Victoria/149/2024 haemagglutinin ectodomain, soluble trimer | 6.01 nM | 0.000365 s⁻¹ | 60700 M⁻¹ s⁻¹ | 15.9 nM | 0.000884 s⁻¹ | 55400 M⁻¹ s⁻¹ | – | – | – | < 0.0537 nM | < 1e-05 s⁻¹ | 186000 M⁻¹ s⁻¹ | 0.209 nM | 3.04e-05 s⁻¹ | 146000 M⁻¹ s⁻¹ |
| H5 A/Vietnam/1194/2004 haemagglutinin ectodomain, soluble trimer | – | – | – | – | – | – | < 0.126 nM | < 1e-05 s⁻¹ | 79100 M⁻¹ s⁻¹ | 3.25 nM | 6.81e-05 s⁻¹ | 20900 M⁻¹ s⁻¹ | < 0.0767 nM | < 1e-05 s⁻¹ | 130000 M⁻¹ s⁻¹ |
